# Literature values, collected in patent US10071176B2, “Disinfection composition, disinfection method, disinfection protocol for tooth brushes, and disinfection product” (priority 2013, dated 2018).
structure (smiles),measurement,setting,value
"[H]/N=C(\N/C(=N/[H])NCCCCCCNC(=N)NC(=N)Nc1ccc(Cl)cc1)Nc1ccc(Cl)cc1 [Chlorhexidine, chlorhexidine]",residual action,Perionews 2011,up to 12 hours
same,substantivity (active residence time),Zanatta and Rösing 2007,approximately 12 hours
